# Reference: US20140342996A1, “Treatments for gastrointestinal disorders” (published 2014)
# Tests used:
# [1] = molecular target: Guanylate cyclase C (GC-C) on human T84 cells (human), P25092; experiment: cell-based or functional assay
# [2] = molecular target: Guanylate cyclase C (GC-C) on human T84 cells (human), P25092; experiment: competitive radioligand binding, [125I]-STp on intact T84 cells
# [3] = molecular target: Guanylate cyclase C (GC-C) on human T84 cells (human), P25092; experiment: competitive radioligand binding, [125I]-STp on intact T84 cells, pH 5
# [4] = molecular target: Guanylate cyclase C (GC-C) on human T84 cells (human), P25092; experiment: competitive radioligand binding, [125I]-STp on intact T84 cells, pH 8
Binder,"Ratio EC50 pH 8/EC50 pH 5, cGMP response in T84 cells [1]","EC50 nM, cGMP response in T84 cells, pH 5 [1] [nM]","EC50 nM, cGMP response in T84 cells, pH 8 [1]",Ratio Ki pH 8/Ki pH 5 [2],Ki [3] [nM],Ki [4] [nM]
DDDCCELCCNPACTGC (modifications not checked) [Peptide 20],90,–,–,–,–,–
CCELCCNPACTGCY (modifications not checked) [Peptide 1],8.5,13.4,114 nM,0.69,2.9,2
EEECCEYCCNPACTGCY (modifications not checked) [Peptide 22],–,–,> 1 mM,–,–,–
